According to patent US20070218001A1:

Biological target: biotin-… peptide (Bacillus anthracis)

phage-displayed third PDZ domain of human Dlg1 (in pCANTAB5E)
OD405: 0.496 OD405
